Earlier results in article PMC8606745 (Frontiers in Microbiology, 2021).

Assays:
Gram-negative bacteria [1] = conditions: Gram-negative bacteria against which activity was described; ref column References of Table 1; cited from earlier work
Gram-negative bacteria [2] = conditions: Gram-negative bacteria against which activity was described; ref column References of Table 1; cited from earlier work; remark: listed apart in the source

Row | Compound | Described activity: Antibacterial (Gram-negative bacteria [1]) | Described activity: Antibiofilm (Gram-negative bacteria [2])
1 | CC[C@H](C)[C@H](NC(=O)[C@H](CCCNC(=N)N)NC(=O)[C@H](Cc1ccccc1)NC(=O)[C@H](CCC(N)=O)NC(=O)[C@@H](N)CCCCN)C(=O)N[C@@H](CCCNC(=N)N)C(=O)N[C@H](C(=O)N[C@@H](CCCNC(=N)N)C(=O)N[C@H](C(N)=O)C(C)C)C(C)C [Peptide 1029] | Pa, Bc | Pa, Bc
2 | CC[C@H](C)[C@H](NC(=O)[C@H](C)NC(=O)[C@H](CCCCN)NC(=O)[C@@H]1CCCN1C(=O)[C@@H](NC(=O)[C@H](CC(C)C)NC(=O)[C@H](CO)NC(=O)[C@H](Cc1ccccc1)NC(=O)[C@H](CC(C)C)NC(=O)[C@@H](N)Cc1ccccc1)[C@@H](C)CC)C(=O)NCC(=O)NCC(=O)N[C@@H](CC(C)C)C(=O)N[C@H](C(=O)N[C@@H](CO)C(=O)N[C@@H](C)C(=O)N[C@@H](Cc1ccccc1)C(=O)N[C@@H](CCCCN)C(N)=O)[C@@H](C)CC [AamAP-S1] | Ec | 
3 | CC[C@H](C)[C@H](NC(=O)[C@H](CCCNC(=N)N)NC(=O)[C@H](Cc1c[nH]c2ccccc12)NC(=O)[C@H](CCC(N)=O)NC(=O)[C@@H](N)C(C)C)C(=O)N[C@@H](CCCNC(=N)N)C(=O)N[C@H](C(=O)N[C@@H](CCCNC(=N)N)C(=O)N[C@H](C(=O)N[C@H](C(=O)N[C@@H](CCCCN)C(=O)N[C@@H](CCCCN)C(N)=O)[C@@H](C)CC)C(C)C)C(C)C [Peptide 1026] | Pa, Bc | Pa, Bc
4 | CC[C@H](C)[C@H](NC(=O)[C@H](CCCNC(=N)N)NC(=O)[C@H](Cc1ccccc1)NC(=O)[C@H](CCC(N)=O)NC(=O)[C@@H](N)C(C)C)C(=O)N[C@@H](CCCNC(=N)N)C(=O)N[C@H](C(=O)N[C@@H](CCCNC(=N)N)C(=O)N[C@H](C(=O)N[C@H](C(=O)N[C@H](C(=O)N[C@@H](CCCNC(=N)N)C(=O)N[C@@H](CCCCN)C(N)=O)[C@@H](C)CC)C(C)C)[C@@H](C)CC)C(C)C [Peptide 1036] | Pa, Bc | Pa, Bc
5 | CC[C@@H](C)[C@@H](NC(=O)[C@H](N)CCCNC(=N)N)C(=O)N[C@@H](C(=O)N[C@H](Cc1c[nH]c2ccccc12)C(=O)N[C@@H](C(=O)N[C@H](CCCNC(=N)N)C(=O)N[C@@H](C(=O)N[C@H](CCCNC(=N)N)C(=O)N[C@H](CCCNC(=N)N)C(=O)N[C@H](Cc1c[nH]c2ccccc12)C(=O)N[C@H](Cc1ccccc1)C(=O)N[C@@H](C(N)=O)C(C)C)[C@H](C)CC)C(C)C)C(C)C [RIJK2] |  | Pa, Kp
6 | CC[C@H](C)[C@H](NC(=O)[C@H](CCCNC(=N)N)NC(=O)[C@H](Cc1ccccc1)NC(=O)[C@H](CCCNC(=N)N)NC(=O)[C@@H](N)CCCCN)C(=O)N[C@@H](CCCNC(=N)N)C(=O)N[C@H](C(=O)N[C@@H](CCCNC(=N)N)C(=O)N[C@H](C(N)=O)C(C)C)C(C)C [Peptide 1037] | – | Pa, Bc
